IC50 data for two compounds are collected here from BindingDB's records for 21962108.

By UniProt entry, the sequences of proteins in these tests, tags left out.
UniProt P15390, whole entry, looked up: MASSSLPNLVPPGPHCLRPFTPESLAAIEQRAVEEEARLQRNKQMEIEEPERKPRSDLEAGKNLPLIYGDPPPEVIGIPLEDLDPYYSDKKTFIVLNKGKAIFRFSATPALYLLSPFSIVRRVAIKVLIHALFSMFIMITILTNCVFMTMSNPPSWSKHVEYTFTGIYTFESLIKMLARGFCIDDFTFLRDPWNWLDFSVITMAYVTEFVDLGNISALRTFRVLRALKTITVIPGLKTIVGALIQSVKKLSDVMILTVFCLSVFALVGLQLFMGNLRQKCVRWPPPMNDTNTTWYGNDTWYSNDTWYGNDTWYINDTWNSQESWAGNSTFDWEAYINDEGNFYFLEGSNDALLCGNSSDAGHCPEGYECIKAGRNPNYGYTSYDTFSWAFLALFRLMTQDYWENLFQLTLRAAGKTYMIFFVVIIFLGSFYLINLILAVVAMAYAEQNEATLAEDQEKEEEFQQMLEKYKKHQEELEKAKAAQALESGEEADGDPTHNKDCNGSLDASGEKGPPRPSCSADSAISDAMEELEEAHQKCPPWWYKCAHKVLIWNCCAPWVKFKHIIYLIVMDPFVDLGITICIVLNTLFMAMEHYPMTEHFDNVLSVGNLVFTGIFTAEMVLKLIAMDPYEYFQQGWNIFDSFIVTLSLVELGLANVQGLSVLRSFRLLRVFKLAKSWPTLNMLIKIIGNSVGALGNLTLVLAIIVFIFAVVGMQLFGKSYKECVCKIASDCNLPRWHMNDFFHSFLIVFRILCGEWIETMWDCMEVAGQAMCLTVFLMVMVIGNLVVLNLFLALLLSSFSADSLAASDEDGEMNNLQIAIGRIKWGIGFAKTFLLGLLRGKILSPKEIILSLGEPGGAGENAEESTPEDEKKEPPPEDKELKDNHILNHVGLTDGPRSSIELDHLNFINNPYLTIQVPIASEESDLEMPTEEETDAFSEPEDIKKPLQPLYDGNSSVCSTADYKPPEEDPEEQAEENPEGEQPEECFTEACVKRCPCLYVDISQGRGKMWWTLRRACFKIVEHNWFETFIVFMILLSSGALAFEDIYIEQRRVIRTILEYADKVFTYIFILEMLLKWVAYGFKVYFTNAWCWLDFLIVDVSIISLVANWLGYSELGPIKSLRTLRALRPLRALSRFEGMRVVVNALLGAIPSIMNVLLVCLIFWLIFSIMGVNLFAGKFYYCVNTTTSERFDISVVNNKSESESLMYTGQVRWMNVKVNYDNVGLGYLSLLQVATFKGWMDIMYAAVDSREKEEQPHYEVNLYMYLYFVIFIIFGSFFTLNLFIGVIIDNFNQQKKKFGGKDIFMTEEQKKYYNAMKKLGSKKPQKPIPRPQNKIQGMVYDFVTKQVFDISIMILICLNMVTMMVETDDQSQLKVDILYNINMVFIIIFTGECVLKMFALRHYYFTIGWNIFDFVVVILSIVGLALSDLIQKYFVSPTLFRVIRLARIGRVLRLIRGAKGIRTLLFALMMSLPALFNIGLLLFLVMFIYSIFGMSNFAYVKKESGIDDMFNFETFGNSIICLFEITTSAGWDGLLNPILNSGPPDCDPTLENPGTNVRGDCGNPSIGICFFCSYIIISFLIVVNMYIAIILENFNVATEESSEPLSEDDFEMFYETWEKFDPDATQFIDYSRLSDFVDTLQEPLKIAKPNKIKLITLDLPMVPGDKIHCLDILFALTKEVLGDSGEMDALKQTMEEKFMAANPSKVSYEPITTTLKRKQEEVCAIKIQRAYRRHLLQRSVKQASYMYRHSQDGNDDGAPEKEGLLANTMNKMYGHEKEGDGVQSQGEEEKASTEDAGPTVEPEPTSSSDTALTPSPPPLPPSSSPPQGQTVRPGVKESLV
UniProt P08104, whole entry, looked up: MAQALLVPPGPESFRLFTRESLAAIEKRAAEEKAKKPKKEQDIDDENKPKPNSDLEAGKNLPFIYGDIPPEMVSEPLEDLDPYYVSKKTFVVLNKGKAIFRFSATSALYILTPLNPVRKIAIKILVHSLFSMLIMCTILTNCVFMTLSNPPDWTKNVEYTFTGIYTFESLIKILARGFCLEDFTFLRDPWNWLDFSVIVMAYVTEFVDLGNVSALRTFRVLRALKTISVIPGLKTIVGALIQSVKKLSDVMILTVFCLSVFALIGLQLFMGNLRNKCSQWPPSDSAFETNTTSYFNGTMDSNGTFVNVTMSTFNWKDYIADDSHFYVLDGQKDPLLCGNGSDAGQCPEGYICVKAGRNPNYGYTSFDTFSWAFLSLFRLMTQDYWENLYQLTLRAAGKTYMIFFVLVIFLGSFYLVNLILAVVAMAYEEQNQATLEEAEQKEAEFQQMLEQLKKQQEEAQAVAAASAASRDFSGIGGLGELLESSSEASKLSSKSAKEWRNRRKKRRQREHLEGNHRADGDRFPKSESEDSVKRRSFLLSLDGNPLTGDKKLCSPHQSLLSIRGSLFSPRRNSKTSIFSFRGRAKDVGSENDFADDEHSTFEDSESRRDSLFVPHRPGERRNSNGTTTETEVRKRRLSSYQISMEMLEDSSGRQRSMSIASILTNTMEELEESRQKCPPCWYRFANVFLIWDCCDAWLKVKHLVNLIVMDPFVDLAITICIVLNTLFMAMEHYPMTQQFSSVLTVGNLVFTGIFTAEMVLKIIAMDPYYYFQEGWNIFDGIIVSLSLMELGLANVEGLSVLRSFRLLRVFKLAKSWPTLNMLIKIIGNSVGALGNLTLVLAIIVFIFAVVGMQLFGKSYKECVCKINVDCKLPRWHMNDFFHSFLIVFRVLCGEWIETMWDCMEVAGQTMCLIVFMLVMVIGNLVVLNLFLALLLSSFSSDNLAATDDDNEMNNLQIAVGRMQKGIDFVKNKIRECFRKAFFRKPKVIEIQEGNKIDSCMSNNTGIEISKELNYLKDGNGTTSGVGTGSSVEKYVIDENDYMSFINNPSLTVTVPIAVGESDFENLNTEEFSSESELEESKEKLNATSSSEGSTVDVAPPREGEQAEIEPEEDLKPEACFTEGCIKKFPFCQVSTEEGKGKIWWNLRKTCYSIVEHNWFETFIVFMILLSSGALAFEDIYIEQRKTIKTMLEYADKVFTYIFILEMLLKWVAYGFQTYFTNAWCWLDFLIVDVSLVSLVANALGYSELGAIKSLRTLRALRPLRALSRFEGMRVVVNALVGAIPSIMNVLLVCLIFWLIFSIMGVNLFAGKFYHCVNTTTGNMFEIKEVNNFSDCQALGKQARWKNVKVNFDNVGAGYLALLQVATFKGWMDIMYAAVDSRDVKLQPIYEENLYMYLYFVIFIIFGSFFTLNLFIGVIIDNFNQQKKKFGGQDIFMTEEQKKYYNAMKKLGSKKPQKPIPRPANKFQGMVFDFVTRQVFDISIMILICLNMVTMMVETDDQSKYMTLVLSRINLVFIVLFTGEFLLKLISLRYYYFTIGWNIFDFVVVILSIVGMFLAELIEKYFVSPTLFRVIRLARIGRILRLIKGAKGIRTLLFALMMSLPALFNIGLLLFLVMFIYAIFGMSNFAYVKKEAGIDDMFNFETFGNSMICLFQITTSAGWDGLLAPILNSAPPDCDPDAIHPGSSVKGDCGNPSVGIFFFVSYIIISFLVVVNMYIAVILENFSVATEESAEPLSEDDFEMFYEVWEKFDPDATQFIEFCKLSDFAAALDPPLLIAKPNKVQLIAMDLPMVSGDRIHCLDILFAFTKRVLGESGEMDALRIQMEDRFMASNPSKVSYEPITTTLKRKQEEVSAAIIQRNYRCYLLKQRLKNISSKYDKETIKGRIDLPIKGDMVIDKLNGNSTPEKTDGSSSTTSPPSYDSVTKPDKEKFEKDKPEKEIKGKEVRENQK
UniProt O08562, whole entry, looked up: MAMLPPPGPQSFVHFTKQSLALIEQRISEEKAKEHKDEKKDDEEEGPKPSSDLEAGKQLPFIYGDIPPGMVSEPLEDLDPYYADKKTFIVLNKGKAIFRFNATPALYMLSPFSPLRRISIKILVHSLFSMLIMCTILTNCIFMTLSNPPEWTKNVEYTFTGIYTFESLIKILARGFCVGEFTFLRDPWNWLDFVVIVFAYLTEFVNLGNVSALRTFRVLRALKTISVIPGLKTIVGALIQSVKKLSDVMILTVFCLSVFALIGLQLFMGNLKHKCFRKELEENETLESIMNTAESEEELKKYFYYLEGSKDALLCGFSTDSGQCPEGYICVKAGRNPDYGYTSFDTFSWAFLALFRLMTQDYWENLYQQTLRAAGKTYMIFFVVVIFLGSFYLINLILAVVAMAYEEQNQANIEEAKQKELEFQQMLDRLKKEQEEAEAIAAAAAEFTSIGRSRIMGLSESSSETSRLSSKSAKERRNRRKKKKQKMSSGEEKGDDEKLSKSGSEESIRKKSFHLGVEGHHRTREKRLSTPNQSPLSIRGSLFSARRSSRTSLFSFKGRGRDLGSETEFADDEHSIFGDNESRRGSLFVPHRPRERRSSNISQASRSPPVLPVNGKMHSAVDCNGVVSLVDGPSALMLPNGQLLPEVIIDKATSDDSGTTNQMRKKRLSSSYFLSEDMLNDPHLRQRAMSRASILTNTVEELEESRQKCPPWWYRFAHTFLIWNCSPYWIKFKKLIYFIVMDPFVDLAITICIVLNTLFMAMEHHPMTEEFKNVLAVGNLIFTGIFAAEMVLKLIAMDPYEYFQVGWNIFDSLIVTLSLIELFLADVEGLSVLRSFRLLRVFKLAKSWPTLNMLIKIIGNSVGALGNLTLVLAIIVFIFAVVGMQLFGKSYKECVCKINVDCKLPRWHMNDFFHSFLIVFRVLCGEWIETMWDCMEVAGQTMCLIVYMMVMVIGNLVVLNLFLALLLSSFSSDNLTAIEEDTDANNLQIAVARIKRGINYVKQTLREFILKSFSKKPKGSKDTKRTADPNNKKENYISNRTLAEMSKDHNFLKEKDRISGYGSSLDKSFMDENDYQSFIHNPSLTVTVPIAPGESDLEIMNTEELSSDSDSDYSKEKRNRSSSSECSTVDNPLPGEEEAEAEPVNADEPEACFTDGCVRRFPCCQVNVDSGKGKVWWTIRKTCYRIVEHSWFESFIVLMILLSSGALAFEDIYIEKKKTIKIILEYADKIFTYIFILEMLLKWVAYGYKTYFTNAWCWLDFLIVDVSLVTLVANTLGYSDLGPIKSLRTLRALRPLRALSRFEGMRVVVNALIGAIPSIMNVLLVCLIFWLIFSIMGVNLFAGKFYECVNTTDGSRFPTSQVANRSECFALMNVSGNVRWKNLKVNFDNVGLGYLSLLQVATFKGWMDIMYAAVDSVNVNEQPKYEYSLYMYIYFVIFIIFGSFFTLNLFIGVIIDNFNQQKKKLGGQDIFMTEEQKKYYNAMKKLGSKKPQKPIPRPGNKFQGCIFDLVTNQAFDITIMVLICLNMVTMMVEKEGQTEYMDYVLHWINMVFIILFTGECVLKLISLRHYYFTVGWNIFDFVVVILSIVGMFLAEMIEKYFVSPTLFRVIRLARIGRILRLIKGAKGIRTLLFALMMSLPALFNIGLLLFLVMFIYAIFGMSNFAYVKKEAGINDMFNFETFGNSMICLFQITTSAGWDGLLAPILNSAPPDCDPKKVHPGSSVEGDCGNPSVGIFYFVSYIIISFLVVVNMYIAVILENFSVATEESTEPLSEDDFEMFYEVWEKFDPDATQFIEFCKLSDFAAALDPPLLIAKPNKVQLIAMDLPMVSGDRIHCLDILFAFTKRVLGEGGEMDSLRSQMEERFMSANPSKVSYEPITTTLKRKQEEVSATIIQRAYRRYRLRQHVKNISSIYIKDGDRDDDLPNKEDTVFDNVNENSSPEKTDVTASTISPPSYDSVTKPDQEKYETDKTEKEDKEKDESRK

The target of test [1] is Sodium channel protein type 4 subunit alpha (Rattus norvegicus, UniProt P15390).
For test [2], the target named is Sodium channel protein type 3 subunit alpha (Rattus norvegicus, UniProt P08104).
Test [3] has as its target Sodium channel protein type 9 subunit alpha (Rattus norvegicus, UniProt O08562).

For orientation: IC50 means the concentration at which inhibition is half-maximal. A lower IC50 goes with greater potency in that assay.

`CC(=O)N[C@@H](CCCCN)C(=O)N[C@@H](Cc1c[nH]c2ccccc12)C(=O)N[C@H]1CCCCNC(=O)C[C@@H](C(=O)N[C@@H](CCCN=C(N)N)C(N)=O)NC(=O)[C@H](Cc2cnc[nH]2)NC(=O)[C@H](CC(=O)O)NC(=O)[C@H](CCCN=C(N)N)NC1=O` displayed an IC50 in test [1] of 204 µM.
Regarding `CC(=O)N[C@@H](CCCCN)C(=O)N[C@@H](Cc1c[nH]c2ccccc12)C(=O)N[C@H]1CC(=O)NCCCC[C@@H](C(=O)N[C@@H](CCCN=C(N)N)C(N)=O)NC(=O)[C@H](Cc2cnc[nH]2)NC(=O)[C@H](CC(=O)O)NC(=O)[C@H](CCCN=C(N)N)NC1=O`, the results for the IC50 in test [2] and in test [3] were 150 µM and 177 µM, respectively.
